A mixed list of measured activities; the numbers were collected in NIAID ChemDB.

Shared fields: growth or infection tests; agent: Mycobacterium tuberculosis

Fold resistance has wild type as its base.

| compound | strain or isolate | tested at | cell line | read by | setting | mutations | read-out | result |
|---|---|---|---|---|---|---|---|---|
| c1c[nH]c(Sc2ncnc3nc[nH]c23)n1 | H37Rv | 6.25 µg/mL |  |  |  |  | inhibition | 32% |
| O=C(CCSCCC(=O)N/N=C\C(O)C(O)C(O)C(O)CO)N/N=C\C(O)C(O)C(O)C(O)CO | H37Rv |  |  | BACTEC |  |  | MIC | ≥12.5 µg/mL |
| Cc1ccn2c(C(=O)NCc3ccc(N4CCC5(CC4)OC[C@H](C)O5)c(F)c3)c(C)nc2c1 | H37Rv |  |  | resazurin |  |  | MIC90 | <2 µM |
| CCn1cc(C(=O)O)c(=O)c2cc(F)c(N3CCN(C/C(=N/O)c4ccc(Br)cc4)CC3)cc21 | H37Rv |  |  |  |  |  | EC50 | >6.25 µg/mL |
| CCCOc1c(C(C)=O)cc(N)c2nccc(CC)c12 | H37Rv |  |  |  |  |  | MIC | >6.25 µg/mL |
| O=C(Nc1cccc(F)c1)c1cc(Cl)ccc1OS(=O)(=O)c1ccccc1 | H37Rv |  |  |  | 21 d |  | MIC | 16 µM |
| CCn1cc(C(=O)O)c(=O)c2cc(F)c(N3CCN(C/C(=N/O)c4ccc(Br)cc4)CC3)nc21 | H37Rv |  |  |  |  |  | MIC | >6.25 µg/mL |
| CNC(=O)OCc1c(C)sc(-c2ccccc2)c1COC(=O)NC | H37Rv | 12.5 µg/mL |  | BACTEC |  |  | inhibition | 0% |
| CO[C@H]1/C=C/O[C@@]2(C)Oc3c(C)c(O)c4c(O)c(c(/C=N/N5CCN(C)CC5)c(O)c4c3C2=O)NC(=O)/C(C)=C\C=C\[C@H](C)[C@H](O)[C@@H](C)[C@@H](O)[C@@H](C)[C@H](OC(C)=O)[C@@H]1C | 13684 |  |  |  |  |  | MIC | 0.05 µg/mL |
| CO/C(=N\N=C\c1ccc(Cl)cc1Cl)c1ccncc1 | H37Rv |  |  |  |  |  | MIC | >20 µg/mL |
| Cl.FC(F)(F)c1ccc2c(c1)N(CCCNCCN1CCOCC1)c1ccccc1S2 | H37Rv |  |  | BACTEC |  |  | MIC bound | ≤12.5 µg/mL |
| COc1cccc2c(=O)n3c(nc12)C(=O)c1cc(S(=O)(=O)N2CCN(C)CC2)ccc1-3 | H37Rv |  |  |  |  |  | MIC | 2 µg/mL |
| COc1cc2oc3c(c(=O)c2c(O)c1/C=C/C(C)C)C(C=C(C)C)Oc1cc(O)ccc1-3 | RMP-R |  |  |  |  |  | MIC | >12.5 µg/mL |
| Cc1ccc2nc(C)c(C(=O)NCc3ccc(N4CCS(=O)(=O)CC4)cc3)n2c1 | H37Rv |  |  | resazurin |  |  | MIC90 | <2 µM |
| CCOC(=O)c1ccc2c(c1)C(=O)c1nc3ccccc3c(=O)n1-2 | H37Rv |  |  |  |  |  | MIC | 0.06 µg/mL |
| CC(=O)c1cc([N+](=O)[O-])c2nc(C(C)C)ccc2c1C(C)C | H37Rv |  |  |  |  |  | MIC | 6.25 µg/mL |
| CCn1cc(C(=O)O)c(=O)c2cc(F)c(N3CCN(CC(=O)c4ccc(OC)cc4)CC3)cc21 | H37Rv | 6.25 µg/mL |  |  |  |  | inhibition | 24% |
| C/C(=N\NC(=O)c1ccncc1)c1ccc(F)cc1 | H37Rv |  |  |  |  |  | MIC | >20 µg/mL |
| CCSc1nc(Cl)nc2nc[nH]c12 | H37Rv | 6.25 µg/mL |  |  |  |  | inhibition | 44% |
| CO[C@H]1/C=C/O[C@@]2(C)Oc3c(C)c(O)c4c(=O)c(c5oc6cc(N7CCN(CC(C)C)CC7)cc(=O)c6nc5c4c3=C2O)NC(=O)/C(C)=C\C=C\[C@H](C)[C@H](O)[C@@H](C)[C@@H](O)[C@@H](C)[C@H](OC(C)=O)[C@@H]1C | 33 (rifampin-resistant) |  |  |  |  |  | MBC | 0.05 µg/mL |
| Cc1cccc(C)c1Sc1ncnc2nc[nH]c12 | H37Rv |  |  |  |  |  | MIC90 | >6.25 µg/mL |
| O=c1[nH]c(=O)c2cc3cn[nH]c3cc2[nH]1 | H37Rv | 12.5 µg/mL |  | BACTEC |  |  | inhibition | -38% |
| NCC[C@H](O)C(=O)N[C@@H]1C[C@H](N)[C@@H](O[C@H]2O[C@H](CN)[C@@H](O)[C@H](O)[C@H]2O)[C@H](O)[C@H]1O[C@H]1O[C@H](CO)[C@@H](O)[C@H](N)[C@H]1O | TN933 (CB) |  |  |  |  |  | MIC | 8 µg/mL |
| COc1c(C(C)=O)cc([N+](=O)[O-])c2nc(C(C)(C)C)ccc12 | H37Rv |  |  |  |  |  | MIC | >6.25 µg/mL |
| CO/C(=N\N=C\c1cccc(C(C)(F)F)c1)c1ccncc1 | 6 PI |  |  |  |  |  | MIC | >20 µg/mL |
| CCc1ccnc2c([N+](=O)[O-])cc(C(C)=O)c(OC(C)C)c12 | H37Rv |  |  |  |  |  | MIC | 6.25 µg/mL |
| COC(=O)C1=C(C)N(c2ccc(Cl)cc2)C(C)=C(C(=O)OC)C1c1ccc(SC)cc1 | H37Rv |  |  |  |  |  | MIC | >6.25 µg/mL |
| CCCCOc1c(C(C)=O)cc([N+](=O)[O-])c2nccc(CC)c12 | H37Rv |  |  |  |  |  | MIC | >6.25 µg/mL |
| CC1=NN(c2ccccc2)C(=O)C1N=Nc1ccc(S(=O)(=O)Nc2nnc(C)s2)cc1 | H37Rv |  | VERO |  |  |  | MIC | 3.1 µg/mL |
| CC1=C(C(=O)Nc2cc(C)ccc2C)C(c2ccc([N+](=O)[O-])cc2)C(C(=O)Nc2cc(C)ccc2C)=C(C)N1 | H37Rv |  |  |  |  |  | MIC | >6.25 µg/mL |
| O=NNc1cnccn1 | H37Rv |  |  | BACTEC |  |  | MIC bound | >12.5 µg/mL |
| CC1=C(C(=O)Nc2ccc(Cl)cc2)C(c2cccc([N+](=O)[O-])c2)C(C(=O)Nc2cccc(C)c2C)=C(C)N1 | H37Rv |  |  |  |  |  | MIC | >6.25 µg/mL |
| O=C(Nc1cccc(F)c1)c1ccc(Cl)cc1OS(=O)(=O)c1ccccc1 | H37Rv |  |  |  | 14 d |  | MIC | 16 µM |
| Cc1ccn2c(C(=O)NCc3ccc(N4CCN(C(=O)OCC(C)C)CC4)c(F)c3)c(C)nc2c1 | H37Rv |  |  | resazurin |  |  | MIC90 | 2–10 µM |
| CO[C@H]1/C=C/O[C@@]2(C)Oc3c(C)c(O)c4c(O)c(c5c(c4c3C2=O)NC2(CCN(CC(C)C)CC2)N=5)=NC(=O)/C(C)=C\C=C\[C@H](C)[C@H](O)[C@@H](C)[C@@H](O)[C@@H](C)[C@H](OC(C)=O)[C@@H]1C | 9 (rifampin-resistant) |  |  |  |  |  | MIC | 0.05 µg/mL |
| CC(=O)NC[C@H]1CN(c2ccc(N3CCN(c4ccc([N+](=O)[O-])s4)CC3)c(F)c2)C(=O)O1 | M-168 |  |  |  |  |  | MIC | 0.25 µg/mL |
| O=C1c2cc(I)ccc2-n2c1nc1ncccc1c2=O | TN772RFLF:AB (MDR) |  |  |  |  |  | MIC | 0.06 µg/mL |
| O=C(COc1ccc(Cl)cc1Cl)Nc1cccc2c1C(=O)c1ccccc1C2=O | H37Rv |  |  | BACTEC |  |  | MIC bound | >12.5 µg/mL |
| COC(=O)C(C/C=C/c1ccc2c(c1)C(=O)c1nc3cc(Cl)cc(Cl)c3c(=O)n1-2)NC(C)=O | H37Rv |  |  |  |  |  | MIC | >8 µg/mL |
| CC1COc2c(N3CCN(C)CC3)c(F)cc3c(=O)c(C(=O)O)cn1c23 | 3183-5 |  |  |  |  |  | MIC | 0.5 µg/mL |
| CCc1nc2ccc(Cl)cn2c1C(=O)NCc1ccc2c(c1)CCO2 | H37Rv |  |  | resazurin |  |  | MIC90 | <2 µM |
| O=C(Nc1ccc(C(F)(F)F)cc1)c1ccc(Cl)cc1OS(=O)(=O)c1ccccc1 | H37Rv |  |  |  | 21 d |  | MIC | 4 µM |
| Clc1ccc(Nc2cc3nc4ccccc4n(-c4ccc(Cl)c(Cl)c4)c-3cc2=NC2CCNCC2)cc1Cl | 2218 (SM INH THA-RES) |  |  |  |  |  | MIC | 0.5 µg/mL |
| Cc1cn2c(C(=O)NCc3ccc(N4CCS(=O)(=O)CC4)cc3)c(C)nc2s1 | H37Rv |  |  | resazurin |  |  | MIC90 | <2 µM |
| C=CN1CCCC1=O.C=COC(C)=O | H37Rv |  |  | resazurin |  |  | MIC bound | >6.25 µg/mL |
| CC1=C(C(=O)Nc2ccc(F)cc2)C(c2ccccc2[N+](=O)[O-])C(C(=O)Nc2ccc(F)cc2)=C(C)N1 | H37Rv |  |  |  |  |  | MIC | >6.25 µg/mL |
| Cc1ccn2c(C(=O)NCc3cccc(OC(F)(F)F)c3)c(C)nc2c1 | H37Rv |  |  | resazurin |  |  | MIC90 | <2 µM |
| CO/C(=N\N=C\c1cccc(F)c1)c1ccncc1 | H37Rv |  |  |  |  |  | MIC | >20 µg/mL |
| CCN(CC)CCNc1ccc(CO)c2sc3ccc(O)cc3c(=O)c12 | H37Rv |  |  | BACTEC |  |  | MIC bound | >12.5 µg/mL |
| O=C(Nc1ccc(Br)cc1)c1cc(Cl)ccc1OS(=O)(=O)c1ccccc1 | H37Rv |  |  |  | 21 d |  | MIC | 8 µM |
| COc1cc2c(oc(=O)c3cc(C)cc(OC)c32)c2c(C3OC(C)C(O)C(C)(O)C3O)ccc(O)c12 | PZA-R |  |  |  |  |  | MIC | 6.3 µg/mL |
| Clc1ccccc1Sc1ncnc2nc[nH]c12 | H37Rv |  |  |  |  |  | MIC90 | >6.25 µg/mL |
| O=C1c2cc(OC(F)(F)F)ccc2-n2c1nc1ncccc1c2=O | H37Rv |  |  |  |  |  | MIC | 0.06 µg/mL |
| Cc1ccc(/C(CN2CCN(c3cc4c(cc3F)c(=O)c(C(=O)O)cn4C3CC3)CC2)=N\O)cc1 | H37Rv |  |  |  |  |  | EC50 | >6.25 µg/mL |
| CCN=c1cc2n(-c3ccc(Cl)cc3)c3ccccc3nc-2cc1Nc1ccc(Cl)cc1 | H37Rv |  |  |  |  |  | MIC | 0.06 µg/mL |
| Cn1c2ccccc2c(=S)c2c(O)cc3c(c21)C=CC(C)(C)O3 | H37Rv |  |  | BACTEC |  |  | MIC | ≥12.5 µg/mL |
| CCc1ccc([C@H]2C[C@@H](C(F)(F)F)n3ncc(C(=O)NCc4ccc5c(c4)OCO5)c3N2)cc1 | H37Rv |  |  | fluorescence |  | MmpL3: Ser591Ile | fold resistance | 30 |
| CC(C)CCCC(C)C1CCC2C3CC=C4CC(C(=O)NN)CCC4(C)C3CCC12C | H37Rv | 12.5 µg/mL |  | BACTEC |  |  | inhibition | 7% |
| CCn1cc(C(=O)O)c(=O)c2cc(F)c(N3CCN(CC(=O)c4ccccc4)CC3)cc21 | H37Rv | 6.25 µg/mL | VERO |  |  |  | inhibition | 100% |
| COc1ccc2nc(N/N=C(/c3ccccc3)c3ccccn3)cc(C)c2c1 | H37Rv |  |  | BACTEC |  |  | MIC bound | ≤12.5 µg/mL |
| O=C(Nc1cccc(C(F)(F)F)c1)c1cc(Cl)ccc1OS(=O)(=O)c1ccccc1 | H37Rv |  |  |  | 14 d |  | MIC | 2 µM |
| N#CC(O[C@@H]1O[C@H](CO[C@@H]2O[C@H](CO)[C@@H](O)[C@H](O)[C@H]2O)[C@@H](O)[C@H](O)[C@H]1O)c1ccccc1 | H37Rv | 12.5 µg/mL |  | BACTEC |  |  | inhibition | 1% |
| CO[C@H]1/C=C/O[C@@]2(C)Oc3c(C)c(O)c4c(O)c(c(/C=N/N5CCN(C6CCCC6)CC5)c(O)c4c3C2=O)NC(=O)/C(C)=C\C=C\[C@H](C)[C@H](O)[C@@H](C)[C@@H](O)[C@@H](C)[C@H](O)[C@@H]1C | Isolate 900201 drug-susceptible |  |  |  |  |  | MIC | 0.5 µg/mL |
| CC1(O)Nc2nc3c(ncn3[C@@H]3O[C@H](CO)[C@@H](O)[C@H]3O)c(=O)n2C1O | H37Rv | 6.25 µg/mL |  | resazurin |  |  | inhibition | -6% |
| O=C(O)c1cn(C2CC2)c2cc(N3CCN(C/C(=N/O)c4ccc(F)cc4)CC3)c(F)cc2c1=O | H37Rv |  | VERO |  |  |  | MIC | 3.13 µg/mL |
| CC(=O)c1cc([N+](=O)[O-])c2ncccc2c1C1CCCCC1 | H37Rv |  |  |  |  |  | MIC | >6.25 µg/mL |
| CCN(CC)CCCN=c1cc2n(-c3ccc(Cl)cc3)c3ccccc3nc-2cc1Nc1ccc(Cl)cc1 | H37Rv |  |  |  |  |  | MIC | 0.5 µg/mL |
| Cc1ccc(Sc2nc(Cl)nc3nc[nH]c23)cc1C | H37Rv | 6.25 µg/mL |  |  |  |  | inhibition | 38% |
| C=C(C)/C=C/[C@]12C[C@H](C)[C@H]3CC[C@](C)(N)[C@@H](CC[C@H]1C)[C@@H]32 | H37Rv | 8 µg/mL |  |  |  |  | inhibition | 99% |
| COc1ccc(Sc2nc(Cl)nc3nc[nH]c23)cc1OC | H37Rv |  |  |  |  |  | MIC90 | >6.25 µg/mL |
| CC(C)(C)OC(=O)N1CCN(c2cc3nc4n(c(=O)c3cc2F)-c2ccc(I)cc2C4=O)CC1 | H37Rv |  |  |  |  |  | MIC | >4 µg/mL |
| CCCCCSc1ncnc2nc[nH]c12 | H37Ra |  |  |  |  |  | MIC | >12.8 µg/mL |
| COc1ccc2c(c1)n([O-])c1ccccc1[n+]2=O | EMB-R |  |  |  |  |  | MIC | 0.8 µg/mL |
| COc1cccc(Sc2ncccn2)c1 | H37Rv | 6.25 µg/mL |  |  |  |  | inhibition | 0% |
| NS(=O)(=O)c1ccccc1C(=O)N/N=C(\c1nc2ccc([N+](=O)[O-])cc2[nH]c1=O)C(O)c1ccc([N+](=O)[O-])cc1 | H37Rv |  |  | resazurin |  |  | MIC bound | >6.25 µg/mL |
| O=C(CN1CCN(c2cc3c(cc2F)c(=O)c(C(=O)O)cn3C2CC2)CC1)c1ccc(F)cc1 | H37Rv |  | VERO |  |  |  | EC50 | <6.25 µg/mL |
| COc1ccc2c(c1)[n+](=O)c(C(=O)C/C(=N\NC(=O)C[N+](C)(C)C)C(=O)Nc1cccc(C)c1C)c(C)n2[O-].[Cl-] | H37Rv | 12.5 µg/mL |  | BACTEC |  |  | inhibition | 0% |
| Cc1nc2cc(Cl)ccn2c1C(=O)NCc1ccc2c(c1)CCO2 | H37Rv |  |  | resazurin |  |  | MIC90 | <2 µM |
| Cn1cc(/C=C/C(=O)c2ccccc2[N+](=O)[O-])c2ccccc21 | H37Rv |  |  | BACTEC |  |  | MIC bound | >6.25 µg/mL |
| O=C1c2cc(F)ccc2-n2c1nc1ccc(Cl)cc1c2=O | H37Rv |  |  |  |  |  | MIC | 0.06 µg/mL |

ECn: concentration that inhibits the pathogen or its effect by n%. MIC bound: limit read from a one-dose screen. A number after MIC or MFC names an inhibition level or a share of isolates. Inhibition is in % at the dose shown (toxicity tests: loss of growth or viability). An empty or dashed field is not shown. Neighbouring rows are from separate reports. Two numbers with a dash give a range or band.